Experimental data as given in patent publication US20240109955A1 (published 2024).

B1: MX1086 (antibody)
chain 1: EIVMTQSPAILSVSPGERATLSCRASQSVAINLAWYQQKPGQAPRLLIYAASSRATGIPGRFSGSGSETNFTLTISSLQSGDFAVYYCQQYITWPPSYTFGQGTKLEIKGGSSGDTVMTQSPLSLPVTPGEPASISCRSSQSLLNSNGYNYLDWYVQKPGQSPQLLIYLGSNRASGVPDRFSGSGSGTDFTLKISRVEAEDVGVYYCMQPLQTPLFTFGPGTKVEIKGGGGSGGSGSGGGGSASGSGQVTLRESGPALVKPTQTLTLTCTFSGFSLSTRGVCVSWIRQPPGKALEWLAFIDWDDDKYYNTSLKTRLTISKDTSKNQVVLTMTNVHPVDTATYYCARISSHHGSSWCTTFDYWGQGALVTVSAGGSSGEVQLVESGGALIQPGGSLRLSCAASGIIVSANYMSWVRQAPGKGLEWVSVIYSGGSTFYADSVKGRFTISRDNSKNTLYLEMNSLRAEDTAVYYCARDAPILGVSDWGQGTLVTVSSASGGSGDKTHTCPPCPAPELLGGPSVFLFPPKPKDTLMISRTPEVTCVVVDVSHEDPEVKFNWYVDGVEVHNAKTKPREEQYNSYVVSVLTVLHQDWLNGKEYKCKVSNKALPAPIEKTISKAKGQPREPQVCTLPPSRDELTKNQVSLSCAVKGFYPSDIAVEWESNGQPENNYKTTPPVLDSDGSFFLVSKLTVDKSRWQQGNVFSCSVLHEALHSHYTQKSLSLSPG
chain 2: QTVVTQEPSFSVSPGGTVTLTCGLSSGSVSTAYFPSWYQQTPGQAPRTLIYGTNTRSSGVPDRFSGSILGNKAALTITGAQADDESDYYCVLYMGRGIVVFGGGTKLTVLGGSSGEIVLTQSPGTLSLSPGETATLSCRASQSFSSDLAWYQQKPGQAPRLLIYGASSRATGIPDRFSGSGSGTDFTLTISRLEPADFAVYYCQQYGSSPPVTFGGGTKVEIKGGGGSGGSGSGGGGSASGSGEVQLVESGGGLIQPGGSLRLSCAASGVIVSYNYMNWVRQAPGKGLEWVSVIYSGGSTFYADSVRGRFTISRDNSKNTLYLQMNSLRAEDTAVYYCARDLGPAGAFDIWGLGTMVTVSSGGSSGQVQLVESGGGVVQPGRSLRLSCAASGFTLSSYGMHWVRQAPGKGLEWVAVISYDGSNKYYVDSVKGRFTISRDNSKNTLYLQMNSLRAEDTAVYYCRWAYWELLPDYYYGMDVWGQGTTVTVSSASGGSGDKTHTCPPCPAPELLGGPSVFLFPPKPKDTLMISRTPEVTCVVVDVSHEDPEVKFNWYVDGVEVHNAKTKPREEQYNSYVVSVLTVLHQDWLNGKEYKCKVSNKALPAPIEKTISKAKGQPREPQVYTLPPCRDELTKNQVSLWCLVKGFYPSDIAVEWESNGQPENNYKTTPPVLDSDGSFFKKLTVDKSRWQQGNVFSCSVLHEALHSHYTQKSLSLSPG
B2: MX1087 (antibody)
chain 1: QTVVTQEPSFSVSPGGTVTLTCGLSSGSVSTAYFPSWYQQTPGQAPRTLIYGTNTRSSGVPDRFSGSILGNKAALTITGAQADDESDYYCVLYMGRGIVVFGGGTKLTVLGGSSGEIVMTQSPAILSVSPGERATLSCRASQSVAINLAWYQQKPGQAPRLLIYAASSRATGIPGRFSGSGSETNFTLTISSLQSGDFAVYYCQQYITWPPSYTFGQGTKLEIKGGGGSGGSGSGGGGSASGSGEVQLVESGGALIQPGGSLRLSCAASGIIVSANYMSWVRQAPGKGLEWVSVIYSGGSTFYADSVKGRFTISRDNSKNTLYLEMNSLRAEDTAVYYCARDAPILGVSDWGQGTLVTVSSGGSSGQVQLVESGGGVVQPGRSLRLSCAASGFTLSSYGMHWVRQAPGKGLEWVAVISYDGSNKYYVDSVKGRFTISRDNSKNTLYLQMNSLRAEDTAVYYCRWAYWELLPDYYYGMDVWGQGTTVTVSSASGGSGDKTHTCPPCPAPELLGGPSVFLFPPKPKDTLMISRTPEVTCVVVDVSHEDPEVKFNWYVDGVEVHNAKTKPREEQYNSYVVSVLTVLHQDWLNGKEYKCKVSNKALPAPIEKTISKAKGQPREPQVYTLPPCRDELTKNQVSLWCLVKGFYPSDIAVEWESNGQPENNYKTTPPVLDSDGSFFKKLTVDKSRWQQGNVFSCSVLHEALHSHYTQKSLSLSPG
chain 2: EIVLTQSPGTLSLSPGETATLSCRASQSFSSDLAWYQQKPGQAPRLLIYGASSRATGIPDRFSGSGSGTDFTLTISRLEPADFAVYYCQQYGSSPPVTFGGGTKVEIKGGSSGDTVMTQSPLSLPVTPGEPASISCRSSQSLLNSNGYNYLDWYVQKPGQSPQLLIYLGSNRASGVPDRFSGSGSGTDFTLKISRVEAEDVGVYYCMQPLQTPLFTFGPGTKVEIKGGGGSGGSGSGGGGSASGSGQVTLRESGPALVKPTQTLTLTCTFSGFSLSTRGVCVSWIRQPPGKALEWLAFIDWDDDKYYNTSLKTRLTISKDTSKNQVVLTMTNVHPVDTATYYCARISSHHGSSWCTTFDYWGQGALVTVSAGGSSGEVQLVESGGGLIQPGGSLRLSCAASGVIVSYNYMNWVRQAPGKGLEWVSVIYSGGSTFYADSVRGRFTISRDNSKNTLYLQMNSLRAEDTAVYYCARDLGPAGAFDIWGLGTMVTVSSASGGSGDKTHTCPPCPAPELLGGPSVFLFPPKPKDTLMISRTPEVTCVVVDVSHEDPEVKFNWYVDGVEVHNAKTKPREEQYNSYVVSVLTVLHQDWLNGKEYKCKVSNKALPAPIEKTISKAKGQPREPQVCTLPPSRDELTKNQVSLSCAVKGFYPSDIAVEWESNGQPENNYKTTPPVLDSDGSFFLVSKLTVDKSRWQQGNVFSCSVLHEALHSHYTQKSLSLSPG
B3: MX1089 (antibody)
chain 1: B2 chain 1
chain 2: DTVMTQSPLSLPVTPGEPASISCRSSQSLLNSNGYNYLDWYVQKPGQSPQLLIYLGSNRASGVPDRFSGSGSGTDFTLKISRVEAEDVGVYYCMQPLQTPLFTFGPGTKVEIKGGSSGEIVLTQSPGTLSLSPGERATLSCRASQSVSSSYLAWYQQKPGQAPRLLIYSASSRATGIPDRFSGSGSGTDFTLTISRLEPEDFAVYFCQQYVGLTGWTFGQGTKVEIKGGGGSGGSGSGGGGSASGSGQMQLVQSGPEVKKPGTSVKVSCKASGFTFTSSAVQWVRQRQRLEWIGWIVVGSGNTNYAQKFQERVTITRDMSTSTAYMELSSLRSEDTAVYYCAAPNCSNVVCYDGFDIWGQGTMVTVSSGGSSGQVTLRESGPALVKPTQTLTLTCTFSGFSLSTRGVCVSWIRQPPGKALEWLAFIDWDDDKYYNTSLKTRLTISKDTSKNQVVLTMTNVHPVDTATYYCARISSHHGSSWCTTFDYWGQGALVTVSAASGGSGDKTHTCPPCPAPELLGGPSVFLFPPKPKDTLMISRTPEVTCVVVDVSHEDPEVKFNWYVDGVEVHNAKTKPREEQYNSYVVSVLTVLHQDWLNGKEYKCKVSNKALPAPIEKTISKAKGQPREPQVCTLPPSRDELTKNQVSLSCAVKGFYPSDIAVEWESNGQPENNYKTTPPVLDSDGSFFLVSKLTVDKSRWQQGNVFSCSVLHEALHSHYTQKSLSLSPG
B4: MX1020 (antibody)
chain: DTVMTQSPLSLPVTPGEPASISCRSSQSLLNSNGYNYLDWYVQKPGQSPQLLIYLGSNRASGVPDRFSGSGSGTDFTLKISRVEAEDVGVYYCMQPLQTPLFTFGPGTKVEIKGGSSGDTVMTQSPLSLPVTPGEPASISCRSSQSLLNSNGYNYLDWYVQKPGQSPQLLIYLGSNRASGVPDRFSGSGSGTDFTLKISRVEAEDVGVYYCMQPLQTPLFTFGPGTKVEIKGGGGSGGSGSGGGGSASGSGQVTLRESGPALVKPTQTLTLTCTFSGFSLSTRGVCVSWIRQPPGKALEWLAFIDWDDDKYYNTSLKTRLTISKDTSKNQVVLTMTNVHPVDTATYYCARISSHHGSSWCTTFDYWGQGALVTVSAGGSSGQVTLRESGPALVKPTQTLTLTCTFSGFSLSTRGVCVSWIRQPPGKALEWLAFIDWDDDKYYNTSLKTRLTISKDTSKNQVVLTMTNVHPVDTATYYCARISSHHGSSWCTTFDYWGQGALVTVSAASGGSGDKTHTCPPCPAPELLGGPSVFLFPPKPKDTLMISRTPEVTCVVVDVSHEDPEVKFNWYVDGVEVHNAKTKPREEQYNSYVVSVLTVLHQDWLNGKEYKCKVSNKALPAPIEKTISKAKGQPREPQVYTLPPSRDELTKNQVSLTCLVKGFYPSDIAVEWESNGQPENNYKTTPPVLDSDGSFFKKLTVDKSRWQQGNVFSCSVLHEALHSHYTQKSLSLSPG
B5: MX1018 (antibody)
chain: EIVMTQSPAILSVSPGERATLSCRASQSVAINLAWYQQKPGQAPRLLIYAASSRATGIPGRFSGSGSETNFTLTISSLQSGDFAVYYCQQYITWPPSYTFGQGTKLEIKGGSSGEIVMTQSPAILSVSPGERATLSCRASQSVAINLAWYQQKPGQAPRLLIYAASSRATGIPGRFSGSGSETNFTLTISSLQSGDFAVYYCQQYITWPPSYTFGQGTKLEIKGGGGSGGSGSGGGGSASGSGEVQLVESGGALIQPGGSLRLSCAASGIIVSANYMSWVRQAPGKGLEWVSVIYSGGSTFYADSVKGRFTISRDNSKNTLYLEMNSLRAEDTAVYYCARDAPILGVSDWGQGTLVTVSSGGSSGEVQLVESGGALIQPGGSLRLSCAASGIIVSANYMSWVRQAPGKGLEWVSVIYSGGSTFYADSVKGRFTISRDNSKNTLYLEMNSLRAEDTAVYYCARDAPILGVSDWGQGTLVTVSSASGGSGDKTHTCPPCPAPELLGGPSVFLFPPKPKDTLMISRTPEVTCVVVDVSHEDPEVKFNWYVDGVEVHNAKTKPREEQYNSYVVSVLTVLHQDWLNGKEYKCKVSNKALPAPIEKTISKAKGQPREPQVYTLPPSRDELTKNQVSLTCLVKGFYPSDIAVEWESNGQPENNYKTTPPVLDSDGSFFKKLTVDKSRWQQGNVFSCSVLHEALHSHYTQKSLSLSPG
B6: MX1029 (antibody)
chain: EIVLTQSPGTLSLSPGETATLSCRASQSFSSDLAWYQQKPGQAPRLLIYGASSRATGIPDRFSGSGSGTDFTLTISRLEPADFAVYYCQQYGSSPPVTFGGGTKVEIKGGSSGEIVLTQSPGTLSLSPGETATLSCRASQSFSSDLAWYQQKPGQAPRLLIYGASSRATGIPDRFSGSGSGTDFTLTISRLEPADFAVYYCQQYGSSPPVTFGGGTKVEIKGGGGSGGSGSGGGGSASGSGEVQLVESGGGLIQPGGSLRLSCAASGVIVSYNYMNWVRQAPGKGLEWVSVIYSGGSTFYADSVRGRFTISRDNSKNTLYLQMNSLRAEDTAVYYCARDLGPAGAFDIWGLGTMVTVSSGGSSGEVQLVESGGGLIQPGGSLRLSCAASGVIVSYNYMNWVRQAPGKGLEWVSVIYSGGSTFYADSVRGRFTISRDNSKNTLYLQMNSLRAEDTAVYYCARDLGPAGAFDIWGLGTMVTVSSASGGSGDKTHTCPPCPAPELLGGPSVFLFPPKPKDTLMISRTPEVTCVVVDVSHEDPEVKFNWYVDGVEVHNAKTKPREEQYNSYVVSVLTVLHQDWLNGKEYKCKVSNKALPAPIEKTISKAKGQPREPQVYTLPPSRDELTKNQVSLTCLVKGFYPSDIAVEWESNGQPENNYKTTPPVLDSDGSFFKKLTVDKSRWQQGNVFSCSVLHEALHSHYTQKSLSLSPG

Legend:
Experiment in all cases: cell-based or functional assay
[1] = molecular target: SARS-CoV-2 spike protein, Delta variant (SARS-CoV-2)
[2] = molecular target: SARS-CoV-2 spike protein, Omicron variant B.1.1.529 (SARS-CoV-2)
[3] = molecular target: SARS-CoV-2 Omicron variant B.1.1.529 spike protein (SARS-CoV-2, UniProt P0DTC2 14-1273)

Binder	IC50, pseudovirus neutralization [1]	IC80, pseudovirus neutralization [1]	IC50, pseudovirus neutralization [2]	IC80, pseudovirus neutralization [2]	IC50, pseudovirus neutralization [3]	IC80, pseudovirus neutralization [3]
B1	39.8 ng/mL	46.5 ng/mL	2.91 ng/mL	7.73 ng/mL	–	–
B2	17.6 ng/mL	32 ng/mL	1.82 ng/mL	5.24 ng/mL	–	–
B3	78.4 ng/mL	123 ng/mL	2.71 ng/mL	8.34 ng/mL	–	–
B4	–	–	–	–	2.19 ng/mL	3.61 ng/mL
B5	–	–	–	–	4.33 ng/mL	11.9 ng/mL
B6	–	–	–	–	3.79 ng/mL	6.78 ng/mL
